According to article PMC8324038 (ACS infectious diseases, 2021):

Experiments:
PenA1 T237A variant = target: T1, PenA1 T237A variant (Burkholderia multivorans, UniProt A0A0H3KN52, T250A); assay: IC50 with crude protein extracts, nitrocefin reporter; format: biochemical
T1 sequence (A0A0H3KN52 28-302 T250A): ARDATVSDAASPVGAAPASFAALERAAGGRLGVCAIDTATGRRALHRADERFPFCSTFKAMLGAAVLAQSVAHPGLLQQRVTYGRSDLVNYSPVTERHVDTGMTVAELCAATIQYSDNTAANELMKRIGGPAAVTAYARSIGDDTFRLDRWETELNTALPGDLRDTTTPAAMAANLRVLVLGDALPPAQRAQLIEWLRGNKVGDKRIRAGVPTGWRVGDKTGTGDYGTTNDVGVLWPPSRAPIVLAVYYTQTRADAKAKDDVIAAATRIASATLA

PenA1 R220A variant = target: T2, PenA1 R220A variant (Burkholderia multivorans, UniProt A0A0H3KN52, R233A); assay: biochemical
T2 sequence (A0A0H3KN52 28-302 R233A): T1 sequence (A0A0H3KN52 28-302 T250A)

PenA1 D276A variant = target: T3, PenA1 D276A variant (Burkholderia multivorans, UniProt A0A0H3KN52, D287A); assay: IC50 with crude protein extracts, nitrocefin reporter; format: biochemical
T3 sequence (A0A0H3KN52 28-302 D287A): T1 sequence (A0A0H3KN52 28-302 T250A)

PenA1 S130A variant = target: T4, PenA1 S130A variant (Burkholderia multivorans, UniProt A0A0H3KN52, S143A); assay: as above; format: biochemical
T4 sequence (A0A0H3KN52 28-302 S143A): T1 sequence (A0A0H3KN52 28-302 T250A)

PenA1 N170A variant = target: T5, PenA1 N170A variant (Burkholderia multivorans, UniProt A0A0H3KN52, N183A); assay: as above; format: biochemical
T5 sequence (A0A0H3KN52 28-302 N183A): T1 sequence (A0A0H3KN52 28-302 T250A)

PenA1 K234A variant = target: T6, PenA1 K234A variant (Burkholderia multivorans, UniProt A0A0H3KN52, K247A); assay: as above; format: biochemical
T6 sequence (A0A0H3KN52 28-302 K247A): T1 sequence (A0A0H3KN52 28-302 T250A)

NC(=O)[C@@H]1CC[C@@H]2CN1C(=O)N2OS(=O)(=O)O [avibactam]
IC50 (PenA1 T237A variant): 120 nM | IC50 (PenA1 R220A variant): 31000 nM | IC50 (PenA1 D276A variant): 1000 nM | IC50 (PenA1 S130A variant): > 500000 nM | IC50 (PenA1 N170A variant): 2600 nM | IC50 (PenA1 K234A variant): > 800000 nM
